## Share of PSTVd stem 15 variants by leaf site

Values reported by Wu et al. 2024 (doi:10.1371/journal.ppat.1012142).

Region: stem 15 of PSTVd (intermediate strain), upper and lower strand joined, each 5' to 3', the first 9 letters being the upper strand. Wild type: CUGGAGCGAUCGCUUCGG. Varied positions (N): CUGGAGCGAUNGNNUNNG.

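A pool of all variants was put on leaves of three Nicotiana benthamiana plants. Samples came from the inoculated region at 5 days, the leaf margin at 10 and upper systemic leaves at 12.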

Numbers give reads per thousand; 0 = not seen among the reads, higher = more abundant.
Each site shows the three plants.
"Pool" is the share in the plasmid pool used as inoculum, on the same scale.
The inoculated region was read from the minus strand, the other sites from the plus strand.
The authors trace changes outside the varied positions to PCR and sequencing errors or to mutation in the plant; presence does not show that a variant is infectious alone.
Samples held 36,693 to 63,082 reads, so the smallest values rest on one or two reads.
For reference, wild type rose from 10.2 per thousand in the pool to 285, 367, 312 (inoculated region), 785, 865, 782 (leaf margin) and 854, 898, 915 (systemic leaves).

sequence	pool	inoculated region	leaf margin	systemic leaves
CUGGAGCGAUAGAAUGCG	0.873	0.137 / 0.377 / 0.242	0.0414 / 0 / 0	0 / 0 / 0
CUGGAGCGAUAGAAUGGG	1.81	0.724 / 0.586 / 0.465	0.0620 / 0.0545 / 0	0 / 0.0222 / 0
CUGGAGCGAUAGAAUGUG	0.808	0.254 / 0.251 / 0.242	0.0827 / 0 / 0	0 / 0 / 0
CUGGAGCGAUAGAAUUAG	0.808	0.294 / 0.335 / 0.316	0.0827 / 0.0545 / 0.0476	0 / 0 / 0
CUGGAGCGAUAGAAUUCG	0.873	0.117 / 0.314 / 0.261	0 / 0.0273 / 0.0317	0 / 0 / 0
CUGGAGCGAUAGAAUUGG	0.824	0.411 / 0.272 / 0.261	0 / 0.0273 / 0	0 / 0 / 0
CUGGAGCGAUAGAAUUUG	0.760	0.294 / 0.230 / 0.205	0.0207 / 0.0273 / 0	0 / 0 / 0
CUGGAGCGAUAGACUAAG	1.87	0.939 / 2.51 / 1.64	0 / 0.0545 / 0.0317	0 / 0.0222 / 0
CUGGAGCGAUAGACUACG	0.857	0.333 / 0.272 / 0.279	0.0827 / 0.0545 / 0.0317	0 / 0 / 0.0199
CUGGAGCGAUAGACUAGG	0.921	0.313 / 0.272 / 0.372	0 / 0.0545 / 0	0 / 0 / 0
CUGGAGCGAUAGACUAUG	1.12	0.430 / 0.440 / 0.372	0.0620 / 0.0273 / 0.0159	0 / 0 / 0
CUGGAGCGAUAGACUCAG	1.03	0.254 / 1.03 / 0.242	11.5 / 0.0545 / 0	0 / 0 / 0
CUGGAGCGAUAGACUCCG	0.840	0.215 / 0.314 / 0.130	0.0207 / 0.0545 / 0.0317	0 / 0 / 0.0199
CUGGAGCGAUAGACUCGG	1.03	0.333 / 0.377 / 0.261	0.0207 / 0 / 0.0317	0 / 0 / 0
CUGGAGCGAUAGACUCUG	0.840	0.254 / 0.419 / 0.316	0.103 / 0.0273 / 0	0 / 0 / 0
CUGGAGCGAUAGACUGAG	1.07	2.09 / 1.78 / 0.242	0.103 / 0 / 0.0159	0 / 0 / 0
CUGGAGCGAUAGACUGCG	0.824	0.176 / 0.168 / 0.335	0 / 0.0818 / 0.0159	0 / 0 / 0
CUGGAGCGAUAGACUGGG	2.15	1.74 / 1.82 / 1.99	0.0827 / 0.0273 / 0.602	0.0198 / 0 / 0
CUGGAGCGAUAGACUGUG	0.889	0.294 / 0.168 / 0.205	0.0414 / 0.0273 / 0.0159	0 / 0 / 0
CUGGAGCGAUAGACUUAG	0.889	1.92 / 1.09 / 1.38	0.579 / 0.0545 / 0.745	0 / 0 / 0
CUGGAGCGAUAGACUUCG	0.614	0.313 / 0.272 / 0.298	0.0414 / 0.0545 / 0.0159	0 / 0 / 0
CUGGAGCGAUAGACUUGG	0.808	0.235 / 0.251 / 0.242	0.103 / 0 / 0	0 / 0 / 0
CUGGAGCGAUAGACUUUG	1.02	0.137 / 0.921 / 0.261	0 / 0.0273 / 0.0159	0 / 0 / 0
CUGGAGCGAUAGAGUAAG	1.02	0.137 / 0.230 / 0.354	0.0620 / 0 / 0	0 / 0 / 0
CUGGAGCGAUAGAGUACG	0.711	0.274 / 0.335 / 0.298	0.0827 / 0 / 0.0317	0 / 0 / 0
CUGGAGCGAUAGAGUAGG	0.549	0.235 / 0.293 / 0.335	0.0414 / 0.0273 / 0.0317	0 / 0 / 0
CUGGAGCGAUAGAGUAUG	0.808	0.333 / 0.188 / 0.316	0.0207 / 0.0273 / 0.0634	0 / 0 / 0
CUGGAGCGAUAGAGUCAG	0.630	0.313 / 0.272 / 0.279	0.124 / 0 / 0.0476	0 / 0 / 0
CUGGAGCGAUAGAGUCCG	1.00	0.254 / 0.272 / 0.298	0 / 0.0273 / 0.0634	0 / 0 / 0
CUGGAGCGAUAGAGUCGG	0.840	0.352 / 0.314 / 0.298	0.103 / 0 / 0.0159	0 / 0 / 0
CUGGAGCGAUAGAGUCUG	0.905	0.333 / 0.272 / 0.354	0.0414 / 0 / 0.0317	0 / 0 / 0
CUGGAGCGAUAGAGUGAG	0.679	0.294 / 0.251 / 0.298	0.0827 / 0.0273 / 0.0634	0 / 0 / 0
CUGGAGCGAUAGAGUGCG	0.840	0.254 / 0.251 / 0.316	0.0207 / 0.109 / 0.0159	0 / 0 / 0
CUGGAGCGAUAGAGUGGG	0.792	0.333 / 0.147 / 0.261	0 / 0.0273 / 0.0317	0 / 0 / 0
CUGGAGCGAUAGAGUGUG	0.840	0.254 / 0.230 / 0.316	0.0827 / 0.0273 / 0.0159	0 / 0 / 0
CUGGAGCGAUAGAGUUAG	0.776	0.411 / 0.335 / 0.316	0.0827 / 0 / 0.0317	0 / 0 / 0
CUGGAGCGAUAGAGUUCG	0.921	0.215 / 0.293 / 0.186	0.0620 / 0.0818 / 0	0 / 0 / 0
CUGGAGCGAUAGAGUUGG	0.824	0.274 / 0.230 / 0.335	0.0620 / 0.0545 / 0	0 / 0 / 0
CUGGAGCGAUAGAGUUUG	0.937	0.176 / 0.168 / 0.354	0.0620 / 0.0545 / 0	0 / 0 / 0
CUGGAGCGAUAGAUUAAG	0.970	0.215 / 0.398 / 0.223	0.0620 / 0 / 0.0159	0 / 0 / 0
CUGGAGCGAUAGAUUACG	1.87	0.822 / 0.879 / 1.27	0.103 / 0.0545 / 0	0 / 0 / 0
CUGGAGCGAUAGAUUAGG	0.840	0.196 / 0.356 / 0.335	0.103 / 0 / 0.0159	0 / 0 / 0
CUGGAGCGAUAGAUUAUG	0.646	0.176 / 0.230 / 0.242	0 / 0 / 0.0159	0 / 0 / 0
CUGGAGCGAUAGAUUCAG	1.07	0.352 / 0.293 / 0.391	0.103 / 0 / 0.0317	0 / 0 / 0
CUGGAGCGAUAGAUUCCG	1.02	0.254 / 0.188 / 0.354	0 / 0.0273 / 0.0317	0 / 0 / 0
CUGGAGCGAUAGAUUCGG	0.857	0.294 / 0.168 / 0.428	0.0827 / 0.0818 / 0	0.0198 / 0 / 0.0199
CUGGAGCGAUAGAUUCUG	0.986	0.294 / 0.251 / 0.261	0.124 / 0.136 / 0	0 / 0 / 0.0199
CUGGAGCGAUAGAUUGAG	0.760	0.215 / 0.419 / 0.186	0.0207 / 0.0545 / 0.0159	0 / 0 / 0
CUGGAGCGAUAGAUUGCG	0.873	0.274 / 0.230 / 0.298	0.0207 / 0.0545 / 0.0317	0 / 0 / 0
CUGGAGCGAUAGAUUGGG	0.905	0.294 / 0.251 / 0.186	0.0207 / 0.0545 / 0	0 / 0 / 0
CUGGAGCGAUAGAUUGUG	1.08	0.254 / 0.293 / 0.298	0.103 / 0.0273 / 0	0 / 0 / 0
CUGGAGCGAUAGAUUUAG	0.840	0.274 / 0.251 / 0.335	0.0620 / 0 / 0.0159	0 / 0 / 0
CUGGAGCGAUAGAUUUCG	0.711	0.235 / 0.314 / 0.279	0.0827 / 0.0273 / 0.0317	0 / 0 / 0
CUGGAGCGAUAGAUUUGG	0.905	0.196 / 0.147 / 0.279	0 / 0.0273 / 0.0317	0 / 0 / 0
CUGGAGCGAUAGAUUUUG	0.743	0.215 / 0.356 / 0.242	0 / 0.0273 / 0	0 / 0 / 0
CUGGAGCGAUAGCAUAAG	0.857	0.372 / 0.272 / 0.279	0.0827 / 0.0273 / 0.0476	0 / 0 / 0
CUGGAGCGAUAGCAUACG	0.760	0.196 / 0.272 / 0.335	0.0620 / 0.0273 / 0.0159	0 / 0 / 0

Extract of 6 entries:

| sequence | pool | inoculated region | leaf margin | systemic leaves |
|---|---|---|---|---|
| CUGGAGCGAUAGAUUGGG | 0.905 | 0.294 / 0.251 / 0.186 | 0.0207 / 0.0545 / 0 | 0 / 0 / 0 |
| CUGGAGCGAUAGAGUAUG | 0.808 | 0.333 / 0.188 / 0.316 | 0.0207 / 0.0273 / 0.0634 | 0 / 0 / 0 |
| CUGGAGCGAUAGACUACG | 0.857 | 0.333 / 0.272 / 0.279 | 0.0827 / 0.0545 / 0.0317 | 0 / 0 / 0.0199 |
| CUGGAGCGAUAGACUCGG | 1.03 | 0.333 / 0.377 / 0.261 | 0.0207 / 0 / 0.0317 | 0 / 0 / 0 |
| CUGGAGCGAUAGAUUCUG | 0.986 | 0.294 / 0.251 / 0.261 | 0.124 / 0.136 / 0 | 0 / 0 / 0.0199 |
| CUGGAGCGAUAGAUUUGG | 0.905 | 0.196 / 0.147 / 0.279 | 0 / 0.0273 / 0.0317 | 0 / 0 / 0 |